Values quoted from earlier work, collected in paper PMC5667636 (Antiviral Research, 2017).
Read-outs that look alike come from different tables or passages of the source.

What was measured:
[1] = tested on: neuraminidase (NA) of A(H1N1)pdm09 viruses; details: cited from earlier work
[2] = tested on: neuraminidase (NA) of B/Victoria-lineage viruses; details: NA K152M; ref Hurt et al., 2016; cited from earlier work

Row | Structure (SMILES) | inhibition phenotype (NI/RI/HRI) ([1]; footnote c to Table S4, NA AAS and subtype not named at the place, ref Samson et al, 2014) | inhibition phenotype (NI/RI/HRI) ([1]; footnote c to Table S4, NA AAS and subtype not named at the place, ref Takashita et al, 2015b) | inhibition phenotype (NI/RI/HRI) [2] | inhibition phenotype (NI/RI/HRI) ([1]; footnote d to Table S4, NA AAS and subtype not named at the place, ref Meijer et al, 2014)
1 | CCOC(=O)C1=C[C@@H](OC(CC)CC)[C@H](NC(C)=O)[C@@H](N)C1 [Oseltamivir, oseltamivir] | HRI (highly reduced inhibition (HRI) when increases of more than 100-fold are detected) | RI (reduced inhibition (RI) when 10- to 100-fold increases are observed) | RI (for type B viruses the corresponding fold increases are <5, 5–50 and >50 respectively) | 
2 | CC(=O)N[C@H]1[C@H]([C@H](O)[C@H](O)CO)OC(C(=O)O)=C[C@@H]1N=C(N)N [Zanamivir, zanamivir] |  |  |  | HRI (highly reduced inhibition (HRI) when increases of more than 100-fold are detected)
